Compound potency records, mixed from different reports. Data source: NIAID ChemDB in PubChem.

All rows: toxicity to cultured cells; cell line: A549; read-out: CC50

Neighbouring rows are from separate reports. CCn: concentration that lowers growth or viability of the cells by n%. An empty or dashed field is not shown.

| structure | read by | conditions | result |
|---|---|---|---|
| FC(F)(F)c1cccc(-c2nc(=S)[nH][nH]2)c1 | MTT | - | 44.86 µg/mL |
| CCSc1n[nH]c(-c2ccc(Cl)cc2C)n1 | - | - | >100 µg/mL |
| CCc1ccc2[nH]c3cc(C#N)c(=O)oc3c2c1 | visual reading / absorbance | - | 32 µg/mL |
| CCOC(=O)C(Cc1ccccc1)NOP(=O)(CCC(=O)N1C[C@@H](n2cnc3c(=O)[nH]c(N)nc32)[C@H](OC[C@@H](O)P(=O)(ONC(Cc2ccccc2)C(=O)OCC)ONC(Cc2ccccc2)C(=O)OCC)C1)ONC(Cc1ccccc1)C(=O)OCC | - | - | 132 µM |
| Cc1c(Cl)cccc1-c1nc(=S)[nH][nH]1 | MTT | - | >100 µg/mL |
| O=C(c1nc2cc(C(F)(F)F)cc([N+](=O)[O-])c2s1)N1CCCCC1 | resazurin / fluorescence | - | 100 µM |
| CC(C)CCN=C(N)c1ccc(N2CCN(c3ccc(C(N)=NCCC(C)C)cc3)CC2)cc1.Cl.Cl | - | - | 15.6 µg/mL |
| COc1ccc(-c2nc3ccccc3n2C(=O)/C=C/c2ccccc2)cc1 | MTT / absorbance | - | 30 µg/mL |
| COC1=CC(=O)c2c(O)c(C)c(CC(C)=O)c(O)c2C1=O | MTT | - | 2.3 µg/mL |
| C=C(C)[C@@H]1CC(=O)C[C@H]2C(=O)[C@@H]3[C@@H]4C(=C[C@@H]12)C(=O)O[C@@H]4C[C@]3(C)O | MTT | - | 20 µM |
| O=C(O)c1ccc(N2C(=O)c3cccc([N+](=O)[O-])c3C2=O)cc1O | visual reading / absorbance | - | 100 µg/mL |
| CC(C)CS[C@@H]1C=C[C@H](n2cnc3c(N)ncnc32)C1 | - | - | 50 µg/mL |
| C=CCSc1n[nH]c(-c2cccc(C(F)(F)F)c2)n1 | - | - | >100 µg/mL |
| Cc1cc(C#N)cc(C)c1Oc1cc(Nc2ccc(C#N)cc2)nc2ccccc12 | MTT | - | ≥50 µg/mL |
| COc1cc([C@@H]2c3cc4c(cc3[C@@H](O[C@@H]3O[C@@H]5CO[C@@H](C)O[C@H]5[C@H](O)[C@H]3O)[C@H]3COC(=O)[C@H]23)OCO4)cc(OC)c1O | resazurin | - | 0.7 µg/mL |
| CCC(C)Sc1n[nH]c(-c2ccc(C)cc2)n1 | MTT | - | >100 µg/mL |
| N#Cc1cc2[nH]c3ccc(OC(F)(F)F)cc3c2oc1=O | visual reading / absorbance | - | 32 µg/mL |
| Br.CN1C=CN(c2cccc(N3C=CN(C)C3)n2)C1 | sulforhodamine / absorbance | - | >30 µM |
| COc1cc2c(c(O)c1OC)-c1c(cc(OC(C)=O)c(OC)c1O)C[C@@H](C)[C@@H](C)C2 | MTT | - | >10 µg/mL |
| Cc1c(C(F)(F)F)cc2nc(C(=O)N3CCCCC3)sc2c1[N+](=O)[O-] | resazurin / fluorescence | - | >100 µM |
| CCCCCC(=O)Nc1nc(=O)n([C@@H]2C[C@H](CO)[C@@H](O)C2)cc1COC | - | - | >2717 µM |
| NC(=NC1CCC1)c1ccc(N2CCN(c3ccc(C(N)=NC4CCC4)cc3)CC2)cc1 | - | - | >5.8 µg/mL |
| Cc1cc(C=O)cc(C)c1Oc1cc(Nc2ccc(C#N)cc2)nc2ccccc12 | MTT | - | 51.2 µM |
| COc1cc(N(C(C)=O)C(C)CCCN2C(=O)CN(C(C)=O)C2(C)C)c2ncccc2c1 | - | 72 h | >100 µg/mL |
| CC1(C)CCC[C@]2(C)[C@H]3C[C@@H](C4=CCOC4=O)CC3=CC[C@@H]12 | absorbance | - | 34.3 µM |
| CC[C@H](C)C(=O)c1c(O)cc(O)cc1OC/C=C(\C)CCC=C(C)C | sulforhodamine | - | 10.5 µM |
| C#CCSc1n[nH]c(-c2cccc(C(F)(F)F)c2)n1 | MTT | - | >100 µg/mL |
| N/C(=N\O)c1ccc(N2CCN(c3ccc(/C(N)=N/O)cc3)CC2)cc1 | - | - | >181 µg/mL |
| C#CCSc1n[nH]c(-c2ccco2)n1 | - | - | >100 µg/mL |
| COC1=CC(=O)c2c(O)c3c(c(O)c2C1=O)CC(C)(O)OC3 | MTT | - | 2.2 µg/mL |
| C=C(C)[C@@H]1CCC2(C(=O)OC)CC[C@]3(C)C(CCC4[C@@](C)(CC#N)C(C(C)(C)C(=O)Nc5nccs5)CC[C@]43C)C12 | MTT | - | >100 µM |
| Cc1c(C(F)(F)F)cc2nc(C(=O)N[C@@H](CO)C(=O)N3CCCC3)sc2c1[N+](=O)[O-] | resazurin / fluorescence | - | >100 µM |
| S=c1nc(-c2ccc(Cl)cc2)[nH][nH]1 | MTT | - | 43.41 µg/mL |
| NC(=NC1CC1)c1ccc(N2CCN(c3ccc(C(N)=NC4CC4)cc3)CC2)cc1 | - | - | >130 µg/mL |
| C#CCSc1n[nH]c(-c2cccc([N+](=O)[O-])c2C)n1 | - | - | >100 µg/mL |
| COc1c(OC(C)=O)cc2c(c1O)-c1c(cc(O)c(OC)c1OC)C[C@@H](C)[C@@H](C)C2 | MTT | - | >10 µg/mL |
| Cl.Cl.NC(=NC1CCCCCCC1)c1ccc(N2CCN(c3ccc(C(N)=NC4CCCCCCC4)cc3)CC2)cc1 | - | - | 1.95 µg/mL |
| C[C@@H]1C[C@@H](O)c2c(O[C@H]3O[C@H](CO)[C@@H](O)[C@H]3O)cccc2O1 | MTT | - | >40 µg/mL |
| CCOC(=O)c1cc(O)c(O)c(O)c1 | MTS | - | >200 µM |
| Cc1cccc(-c2nc(=S)[nH][nH]2)c1 | MTT | - | >100 µg/mL |
| C=CCSc1n[nH]c(-c2ccco2)n1 | - | - | >100 µg/mL |

A second listing of 4 rows from above:

structure	read by	conditions	result
O=C(c1nc2cc(C(F)(F)F)cc([N+](=O)[O-])c2s1)N1CCCCC1	resazurin / fluorescence	-	100 µM
N/C(=N\O)c1ccc(N2CCN(c3ccc(/C(N)=N/O)cc3)CC2)cc1	-	-	>181 µg/mL
CCC(C)Sc1n[nH]c(-c2ccc(C)cc2)n1	MTT	-	>100 µg/mL
N#Cc1cc2[nH]c3ccc(OC(F)(F)F)cc3c2oc1=O	visual reading / absorbance	-	32 µg/mL